Test results reported in paper PMC10508830 (Antiviral research, 2023).

Target: NA of A/Alabama/03/2020 A(H1N1)pdm09 (H275Y) (Influenza A virus, UniProt A0A0X9QTS2, H275Y)
Format: biochemical

Substance: oseltamivir carboxylate
- IC50 fold-change: 229.67 ± 25.29 (1351) fold
